The target in this test is M.tuberculosis thiamin phosphate synthase (MtTPS) (Mycobacterium tuberculosis, UniProt P9WG75). Put plainly: Thiamin phosphate synthase thiochrome assay (inhibition of MtTPS activity).

By UniProt entry, the sequences of proteins in these tests, tags left out.
UniProt P9WG75, whole entry: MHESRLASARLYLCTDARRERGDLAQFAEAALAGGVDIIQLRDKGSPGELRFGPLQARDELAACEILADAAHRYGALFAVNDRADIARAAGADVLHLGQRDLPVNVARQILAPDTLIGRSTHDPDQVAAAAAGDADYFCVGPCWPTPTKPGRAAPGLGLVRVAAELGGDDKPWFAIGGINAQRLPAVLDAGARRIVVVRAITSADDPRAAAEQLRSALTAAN

Where the note is “MtTPS activity, HMP-PP 5 µM (the Km value)”, `O=C(Nc1cccc([N+](=O)[O-])c1)c1cc2ccccc2cc1O` [Compound 10, Naphtazol B] yielded an IC50 of 70 µ/ml. The “percent inhibition of MtTPS activity” value (compound at 100 µg/ml, normal assay conditions) was “greater than 20%”.

(Values after paper PMC3144219, “Identification of Inhibitors against Mycobacterium tuberculosis Thiamin Phosphate Synthase, an Important Target for the Development of Anti-TB Drugs” (PLoS ONE, 2011).)
